PubChem BioAssay AID504761 | Drosophila RNAi Screening Center | 2011
In all, the deposit lists about 22,000 reagents; below is an unselected part of those with a known target gene and a result. In the full data, 116 (0.52%) are marked active. 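Calls depend on retest data that are not deposited; infection was ranked per plate without normalising between plates; the unit of the infection score is not given.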 Raw values are not corrected between plates. Reagents against one gene are numbered here. Names joined by + are all predicted targets of the reagent. Not stated in the record: the amount of reagent, the time to read-out.

- Purpose: 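Genome-wide fly cell screen for genes dengue virus requires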 (primary screen)
- Cells: D.Mel-2 cells from Drosophila
- Reagents: long dsRNA against Drosophila genes
- Challenge: infection with dengue virus type 2; dose and infection time not stated
- Measurement: 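Cells stained for dengue envelope protein and imaged; percent of infected cells per well on duplicate plates, ranked by infection, with stained nuclei counted for cell number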
- Scale: infection score: higher = more virus-infected cells; cell count: higher = more cells in the well
- Active means: 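Very low infection ranking in both replicate wells (chance probability at most 0.065), then a retest showing infection dropped 1.5-fold or more at p below 0.05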
- Meaning of the calls: active = confirmed: knock-down lowers infection; inactive = not picked or not confirmed

{"predicted target":"CG12835 (retired record)","reagent":1,"infection score, replicate 1":10.4,"infection score, replicate 2":15.9,"cell count, replicate 1":5576,"cell count, replicate 2":6157,"Call":"inactive"}
{"predicted target":"CG12835 (retired record)","reagent":2,"infection score, replicate 1":3.58,"infection score, replicate 2":22.1,"cell count, replicate 1":6974,"cell count, replicate 2":6154,"Call":"inactive"}
{"predicted target":"abo","reagent":1,"infection score, replicate 1":0.94,"infection score, replicate 2":2.33,"cell count, replicate 1":6726,"cell count, replicate 2":6697,"Call":"inactive"}
{"predicted target":"Adss","reagent":1,"infection score, replicate 1":23.5,"infection score, replicate 2":13.4,"cell count, replicate 1":6411,"cell count, replicate 2":6686,"Call":"inactive"}
{"predicted target":"Adss","reagent":2,"infection score, replicate 1":4.33,"infection score, replicate 2":4.21,"cell count, replicate 1":6496,"cell count, replicate 2":5343,"Call":"inactive"}
{"predicted target":"CG18004","reagent":1,"infection score, replicate 1":5.71,"infection score, replicate 2":3.41,"cell count, replicate 1":5780,"cell count, replicate 2":6402,"Call":"inactive"}
{"predicted target":"CG18004","reagent":2,"infection score, replicate 1":3.82,"infection score, replicate 2":13.8,"cell count, replicate 1":4840,"cell count, replicate 2":6066,"Call":"inactive"}
{"predicted target":"Dso1","reagent":1,"infection score, replicate 1":14.2,"infection score, replicate 2":8.54,"cell count, replicate 1":2557,"cell count, replicate 2":7182,"Call":"inactive"}
{"predicted target":"Dso1","reagent":2,"infection score, replicate 1":13.8,"infection score, replicate 2":3.16,"cell count, replicate 1":2552,"cell count, replicate 2":6515,"Call":"inactive"}

Just “infection score, replicate 1”, for 2 of the entries above:
Dso1 #1 = 14.2
Dso1 #2 = 13.8

The results go on.
{"predicted target":"NijC","reagent":1,"infection score, replicate 1":2.2,"infection score, replicate 2":4.09,"cell count, replicate 1":6508,"cell count, replicate 2":6189,"Call":"inactive"}
{"predicted target":"NijC","reagent":2,"infection score, replicate 1":9.03,"cell count, replicate 1":3575,"cell count, replicate 2":268,"Call":"inactive"}
{"predicted target":"ND-B17.2","reagent":1,"infection score, replicate 1":10.5,"infection score, replicate 2":7.94,"cell count, replicate 1":6135,"cell count, replicate 2":6540,"Call":"inactive"}
{"predicted target":"ND-B17.2","reagent":2,"infection score, replicate 1":2.18,"infection score, replicate 2":8.48,"cell count, replicate 1":6558,"cell count, replicate 2":6228,"Call":"inactive"}
{"predicted target":"CG33310","reagent":1,"infection score, replicate 1":5.29,"infection score, replicate 2":3.66,"cell count, replicate 1":6578,"cell count, replicate 2":7103,"Call":"inactive"}
{"predicted target":"CG33310","reagent":2,"infection score, replicate 1":5.23,"infection score, replicate 2":1.1,"cell count, replicate 1":6518,"cell count, replicate 2":5991,"Call":"inactive"}
{"predicted target":"CG33791 + CG12105 + CG18170","reagent":1,"infection score, replicate 1":15.3,"infection score, replicate 2":15.2,"cell count, replicate 1":5287,"cell count, replicate 2":1961,"Call":"inactive"}
{"predicted target":"Adk1","reagent":1,"infection score, replicate 1":6.9,"infection score, replicate 2":3.64,"cell count, replicate 1":6696,"cell count, replicate 2":6789,"Call":"inactive"}
{"predicted target":"CG31832","reagent":1,"infection score, replicate 1":1.97,"infection score, replicate 2":1.32,"cell count, replicate 1":6402,"cell count, replicate 2":6375,"Call":"inactive"}
{"predicted target":"CG31832","reagent":2,"infection score, replicate 1":11,"infection score, replicate 2":11.8,"cell count, replicate 1":5004,"cell count, replicate 2":5620,"Call":"inactive"}
{"predicted target":"Hydr1","reagent":1,"infection score, replicate 1":4.91,"infection score, replicate 2":8.75,"cell count, replicate 1":6803,"cell count, replicate 2":6786,"Call":"inactive"}
{"predicted target":"CG15170","reagent":1,"infection score, replicate 2":13.7,"cell count, replicate 1":646,"cell count, replicate 2":7107,"Call":"inactive"}
